One assay concerns the target human Kv1.1 (human) (UniProt Q09470). The assay can be described thus: cell-based or functional assay.
A further assay deals with human Kv1.3 (human) (UniProt P22001). The assay can be described thus: cell-based or functional assay.

For the substance “Fc-L10-OSK1[K7S, E16K, K20D] (Fc fusion)”, the hKv1.1: IC50 [pM], whole cell patch clamp with human Kv1.1 (human) turned out to be 10000 pM.
For the substance Fc-L10-OSK1[K7S] (Fc fusion), in the assay with human Kv1.1 (human), the hKv1.1/hKv1.3 (ratio of IC50s, reference hKv1.3) is 269 and the hKv1.1: IC50 [pM], whole cell patch clamp was 100000 pM. In addition, in the assay with human Kv1.3 (human), the fold change in selectivity (Kv1.1/Kv1.3) against Fc-L10-OSK1 amounted to 1.3 fold and the fold less potent than the synthetic OSK1 toxin peptide turned out to be 10 fold.

The record behind these values is US20090297520A1.
